Pooled drug test results. Numbers come from NIAID ChemDB, via PubChem.

All rows: growth or infection tests; organism: HIV-1; read by: cytopathic effect / MTT; measure: EC50

Rows are shuffled and stem from different studies. ECn: concentration that inhibits the pathogen or its effect by n%. An empty or dashed field is not shown.

compound | strain | changes | cell line | result
C/C(=C\C#N)c1cc(C)c(Nc2ccnc(Nc3ccc(C#N)cc3)n2)c(C)c1 |  | RT-L100I K103N | MT-4 | 0.0251 µM
Cc1ccnc2c1NC(=O)c1cccnc1N2C1CC1 | UMGL CLIN ISOL |  | C8166 | 0.04 µM
CC(C)c1nc(SCC(N)=O)n(COCc2ccccc2)c1CC1CCCCC1 | IIIB |  | MT-4 | 4.29 µM
O=C(/C=C/c1ccc(O)c(O)c1)c1ccc(O)cc1 |  |  | MT-4 | >4.4 µM
C1CNCCNCCCN[C@H]([C@@H]2CNCCCNCCNCCCN2)CNC1 | IIIB |  | MT-4 | 0.144 µM
Cc1ccnc2c1NC(=O)c1cccnc1N2C1CC1 |  | RT-K103N Y181C | MT-4 | >10 µM
CC(C)=CCN1C(=O)Nc2ccc(Cl)cc2S1(=O)=O | IIIB |  | MT-4 | 9.5 µM
C1CNCCNCCCN(CCCN2CCCNCCNCCCNCC2)CCNC1 | NL4-3 |  | MT-4 | 0.32 µg/mL
Cc1cc(CC#N)cc(C)c1Nc1ccnc(Nc2ccc(C#N)cc2)n1 | LAI |  | MT-4 | 0.0008 µM
Nc1nc(NC2CC2)c2ncn([C@H]3C=C[C@@H](CO)C3)c2n1 |  | RD 23-RTwt | MT-4 | 1.78 µM
NC(=O)c1ncn([C@@H]2O[C@H](CO)[C@@H](O)[C@H]2O)n1 | IIIB | RT-D67N K70R K172R | MT-4 | >3.3 µM
CC(C)[C@H](NC(=O)[C@H](CCCN=C(N)N)NC(=O)N[C@@H](Cc1ccccc1)C(=O)O)C(=O)N[C@@H](C=O)Cc1ccccc1 | RF |  | MT-4 | 0.048 µM
Cc1nc(NS(=O)(=O)c2cccc([N+](=O)[O-])c2)sc1C(C)(C)C | IIIB |  | MT-4 | 0.5 µM
Cn1ncc2c1S(=O)(=O)N(Cc1cccc(Cl)c1)C(=O)N2Cc1ccccc1C#N | IIIB |  | MT-4 | >283.1 µM
CCN1C(=S)c2cn(C)cc2S(=O)(=O)c2cc(Cl)ccc21 | IIIB |  | MT-4 | 17 µM
O=C1/C(=C/c2ccc(O)c(O)c2)CNC/C1=C\c1ccc(O)c(O)c1 |  |  | MT-4 | >21 µM
C1CNCCNCCCN[C@@H]([C@H]2CNCCCNCCNCCCN2)CNC1 | IIIB |  | MT-4 | 0.12 µg/mL
O=C1C(=Cc2ccc(O)c(O)c2)C(=O)c2ccccc21 |  |  | MT-4 | >32 µM
Fc1cccc(F)c1C1SCc2nc3ccccc3n21 | IIIB |  | CEM | 1.1 µM
O=C(/C=C(O)/C=C/c1ccc(O)c(O)c1)/C=C/c1ccc(O)c(O)c1 |  |  | MT-4 | >17 µM
CC(C)(C)NC(=O)[C@@H]1C[C@@H]2CCCC[C@@H]2CN1C[C@H](O)CNC(=O)[C@@H]1N[C@@H]([C@H](NC(=O)Cc2ccccc2)C(N)=O)SC1(C)C | RF |  | MT-4 | 0.59 µM
CCOCn1c(Cc2cc(C)cc(C)c2)c(CC)c(=O)[nH]c1=O | IIIB |  | MT-4 | 0.00046 µg/mL
O=C1c2cccn2-c2ccc(Cl)cc2S(=O)(=O)N1C1CCCCC1 | IIIB |  | MT-4 | 4 µM
Nc1nc(=O)n([C@@H]2C=C[C@H](CO)O2)cc1F | IIIB |  | MT-2 | 0.5 µM
Nc1ccn([C@H]2CC[C@@H](CO)O2)c(=O)n1 | RF |  | CEM + CEM-SS | 0.0947 µM
CC1(C)C2=CC(=O)C(O)(c3ccccc3)C(=O)N2c2ccc(Cl)cc21 | HXB2 |  | MT-4 | 0.11 µM
C1CNCCNCCCN(CCCN2CCCNCCNCCCNCC2)CCNC1 | IIIB |  | MT-4 | 0.37 µM
Nc1ccn([C@H]2CC[C@@H](CO)O2)c(=O)n1 | IIIB |  | MT-4 | 0.0034 µg/mL
Cn1ncc2c1S(=O)(=O)N(Cc1cccc(Cl)c1)C(=O)N2 | IIIB |  | MT-4 | >223.9 µM
O=c1[nH]cnc2c1ncn2[C@H]1CC[C@@H](CO)O1 | IIIB |  | MT-4 | 0.46 µg/mL
Nc1ccn([C@H]2CC[C@@H](CO)O2)c(=O)n1 | RF |  | CEM + CEM-SS | 0.0947 µM
Cc1c(O)cccc1C(=O)N[C@@H](CSc1ccccc1)[C@H](O)CN1C[C@H]2CCCC[C@H]2C[C@H]1C(=O)NC(C)(C)C | RF |  | CEM + CEM-SS | 0.0301 µM
CC(=O)c1s/c(=N\S(=O)(=O)c2cccc([N+](=O)[O-])c2)n(C)c1C | IIIB |  | MT-4 | >25 µM
Cn1ncc2c1S(=O)(=O)N(Cc1cccc(Cl)c1)C(=O)N2Cc1ccccc1Cl | IIIB |  | MT-4 | >272.2 µM
CC(C)c1nc(SCC(N)=O)n(Cc2ccncc2)c1Cc1ccccc1 | IIIB |  | MT-4 | 30.57 µM
CC(C)c1s/c(=N\S(=O)(=O)c2cccc([N+](=O)[O-])c2)n(C)c1C#N | IIIB |  | MT-4 | 0.71 µM
O=C1Nc2ccc(Cl)cc2S(=O)(=O)c2cn(Cc3ccc(-c4ccccc4)cc3)cc21 | IIIB |  | MT-4 | >4.6 µM
O=C1c2ccccc2C(=O)N1CCOC(=S)N(C(=O)c1ccccc1)c1ccc(Cl)cc1 | N119 nevirapine-resistant (RT Y181C) | RT-Y181C | MT-4 | >100 µM
Cn1ncc2c1S(=O)(=O)N(Cc1cccc(Cl)c1)C(=O)N2Cc1cccc(Cl)c1 | IIIB |  | MT-4 | >277.2 µM
CC(C)=CCN1C(C)C(=O)N(C)c2ccc(Cl)cc2S1(=O)=O | IIIB |  | MT-4 | 14 µM
CCOC(=O)c1cn(C)cc1S(=O)(=O)c1cc(Cl)ccc1N | Clinical isolate | RT-K103N | C8166 | ≥30 µM
Cc1cc(C)cc(Cc2[nH]c(=S)[nH]c2C(C)C)c1 | IIIB |  | MT-4 | 0.62 µM
NC(=O)c1ncn([C@H]2O[C@@H](COP(=O)(O)OC[C@@H]3C=C[C@H](n4cnc5c(=O)[nH]cnc54)O3)[C@H](O)[C@@H]2O)n1 | IIIB MKC-442-resistant (RT Y181C) | RT-Y181C | MT-4 | >17.5 µM
COc1cc(/C=C/C(=O)/C=C/c2ccc(O)c(OC)c2)ccc1O |  |  | MT-4 | >1.4 µM
O=C1CN=C(c2ccc[nH]2)c2cc(Cl)ccc2N1 | IIIB |  | MOLT-4 | 0.067 µg/mL
O=C(/C=C/c1ccc(O)cc1)c1ccc(O)cc1O |  |  | MT-4 | >7.4 µM
CCN1C(c2ccccc2)c2cccn2-c2ccc(Cl)cc2S1(=O)=O | IIIB |  | MT-4 | >7.4 µM
Cc1cn([C@H]2C=C[C@@H](CO)O2)c(=O)n(N)c1=O | BRU |  | CEM-C113 + CEM/C113 | >1 µM
O=C1c2ccccc2C(=O)N1CCOC(=S)N(C(=O)c1ccc(Cl)cc1)c1ccc(Cl)cc1 | A17 | RT-K103N Y181C | MT-4 | >100 µM
Cc1cn([C@H]2C=C[C@@H](CO)O2)c(=O)[nH]c1=O | IIIB |  | MT-2 | 1.8 µM
O=C1Nc2ccc(Cl)cc2S(=O)(=O)c2cn(CC=Cc3ccccc3)cc21 | IIIB |  | MT-4 | >200 µM
O=S1(=O)NC(c2c(Cl)cccc2Cl)c2cccn2-c2ccc(Cl)cc21 | IIIB |  | MT-4 | >200 µM
O=C1/C(=C/c2ccc(O)c(O)c2)CC/C1=C\c1ccc(O)c(O)c1 |  |  | MT-4 | >15 µM
Cc1cn([C@H]2C[C@H](N=[N+]=[N-])[C@@H](CO)O2)c(=O)[nH]c1=O | McK |  | CEM + CEM-SS | 0.005 µM
O=C1c2ccccc2C(=O)N1CCOC(=S)N(C(=O)c1ccco1)c1ccc(Cl)cc1 | IIIB | RT-K103R V179D P225H | MT-4 | >100 µM
CC(C)c1cn(C)/c(=N/S(=O)(=O)c2cccc([N+](=O)[O-])c2)s1 | IIIB |  | MT-4 | 3.1 µM
C1CNCCNCCCNCCNC1 | IIIB |  | MT-4 | 399 µM
CCOC(=O)c1c[nH]cc1S(=O)(=O)c1cc(Cl)ccc1N | Clinical isolate | RT-K103N | C8166 | ≥30 µM
O=c1[nH]cnc2c1ncn2[C@H]1CC[C@@H](CO)O1 | IIIB MKC-442-resistant (RT Y181C) | RT-Y181C | MT-4 | 6.5 µM
S=C(NCCc1ccccn1)Nc1ccc(Br)cn1 | IIIB | RT-K103R V179D P225H | MT-4 | >100 µM
C1CNCCNCCCN[C@H]([C@H]2CNCCCNCCNCCCN2)CNC1 | IIIB |  | MT-4 | 0.21 µg/mL
CC(C)CN(C[C@@H](O)[C@H](Cc1ccccc1)NC(=O)O[C@H]1CCOC1)S(=O)(=O)c1ccc(N)cc1 | NL4-3 Gag L75 H219 V390 WT |  | MT-2 | >2.5 µM
CN(C)c1ccc(CNC(=O)[C@@H](NC(=O)Cc2ccccc2)[C@@H]2N[C@@H](C(=O)NC[C@@H](O)CN3C[C@H]4CCCC[C@H]4C[C@H]3C(=O)NC(C)(C)C)C(C)(C)S2)cc1 | RF |  | MT-4 | 0.52 µM
Cc1cc(C)cc(Cc2c(C(C)C)nc(SCC(N)=O)n2Cc2ccncc2)c1 | IIIB |  | MT-4 | 0.31 µM
Nc1ccn([C@H]2CC[C@@H](CO)O2)c(=O)n1 | HXB2 | HXB2-RTwt | MT-4 | 0.89 µM
N#CCN1C(=O)N(Cc2cccc(Cl)c2)S(=O)(=O)c2cscc21 | IIIB |  | MT-4 | 0.1 µM

For reference, 7 entries again:

{"compound": "O=C1Nc2ccc(Cl)cc2S(=O)(=O)c2cn(CC=Cc3ccccc3)cc21", "strain": "IIIB", "cell line": "MT-4", "result": ">200 µM"}
{"compound": "O=C1c2ccccc2C(=O)N1CCOC(=S)N(C(=O)c1ccccc1)c1ccc(Cl)cc1", "strain": "N119 nevirapine-resistant (RT Y181C)", "changes": "RT-Y181C", "cell line": "MT-4", "result": ">100 µM"}
{"compound": "O=C1c2ccccc2C(=O)N1CCOC(=S)N(C(=O)c1ccco1)c1ccc(Cl)cc1", "strain": "IIIB", "changes": "RT-K103R V179D P225H", "cell line": "MT-4", "result": ">100 µM"}
{"compound": "O=C1/C(=C/c2ccc(O)c(O)c2)CC/C1=C\\c1ccc(O)c(O)c1", "cell line": "MT-4", "result": ">15 µM"}
{"compound": "CCN1C(=S)c2cn(C)cc2S(=O)(=O)c2cc(Cl)ccc21", "strain": "IIIB", "cell line": "MT-4", "result": "17 µM"}
{"compound": "C1CNCCNCCCN[C@H]([C@@H]2CNCCCNCCNCCCN2)CNC1", "strain": "IIIB", "cell line": "MT-4", "result": "0.144 µM"}
{"compound": "Cc1cn([C@H]2C=C[C@@H](CO)O2)c(=O)n(N)c1=O", "strain": "BRU", "cell line": "CEM-C113 + CEM/C113", "result": ">1 µM"}